Results deposited as PubChem BioAssay AID624099 (ICCB-Longwood, 2012).

Purpose: 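Host factors E2 relies on to silence an HPV18 LCR reporter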 (primary screen)
System: human C33A cervical carcinoma cells (HPV-negative) stably expressing BPV1 E2 and an HPV18 LCR luciferase reporter
Reagents: siRNA pool against human genes, 40 nM
Duration: 72 h
Measured: 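Per-well luciferase luminescence, z-scored on each plate against the plate mean and SD with control wells left out, then averaged across three replicate plates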
Reading the numbers: mean z-score and z-score: higher = stronger reporter signal, weaker E2 silencing
Rule for the call: 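Hit if mean z-score reaches 2 and two or more of three replicate z-scores also reach 2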
The whole screen tested about 21,000 reagents; this is a part drawn at random. 497 of all reagents (2.4%) count as active. 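Higher z means weaker E2 silencing; only reporter increases were scored, and knock-downs that hurt cell survival may mask genuine repressor factors.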 The numbers tell different reagents against one gene apart. No sequences are given here.

no.	gene knocked down	pool no.	mean z-score	z-score, replicate A	z-score, replicate B	z-score, replicate C	call
1	HNRNPA2B1	1	2.06	2.31	1.87	1.99	inactive
2	LINGO2	1	1.17	1.7	0.41	1.41	inactive
3	TACC2	1	2	1.99	2.11	1.91	inactive
4	LOC389624 (retired record)	1	0.68	0.42	0.67	0.95	inactive
5	PNKP	1	0.79	0.73	0.64	1	inactive
6	A1CF	1	0.5	0.71	0.35	0.44	inactive
7	SPINK5	1	-0.03	-0.19	0.14	-0.04	inactive
8	SLC25A48	1	1.33	1.09	1.4	1.5	inactive
9	OR4E2	1	1.71	1.56	1.37	2.2	inactive
10	DXO	1	0.69	0.69	0.76	0.62	inactive
11	TMT1A	1	0.22	0.11	0.48	0.08	inactive
12	GAP43	1	-0.4	-0.54	0.32	-0.98	inactive
13	SLC30A1	1	-0.01	-0.1	0.14	-0.07	inactive
14	ABHD16B	1	-1.17	-0.71	-1.28	-1.52	inactive
15	XRCC5	1	1.05	0.87	1.15	1.13	inactive
16	GOLPH3	1	-0.47	-0.85	-0.47	-0.1	inactive
17	ADIG	1	0.03	0.09	0.04	-0.05	inactive
18	MMS19	1	0.91	0.74	0.91	1.08	inactive
19	ASPHD2	1	-0.62	-1.04	-0.42	-0.4	inactive
20	BEND5	1	0.73	1.16	0.56	0.46	inactive
21	LINC01549	1	-0.43	-0.66	-0.23	-0.42	inactive
22	SLC49A4	1	-0.13	0.01	-0.16	-0.22	inactive
23	GPX5	1	-0.18	0.22	-0.21	-0.54	inactive
24	NOX4	1	2.37	2.89	2.16	2.05	active
25	PRR19	1	0.78	0.82	0.7	0.81	inactive
26	IL23R	1	0.13	0.26	0.1	0.03	inactive
27	SSBP2	1	-0.13	-0.09	-0.19	-0.12	inactive
28	IL2RG	1	-0.57	-0.73	-0.5	-0.47	inactive
29	HCN4	1	-1.18	-1.08	-1.19	-1.27	inactive
30	PTGES	1	0.01	0	-0.03	0.05	inactive
31	SYTL3	1	-1.98	-1.99	-2.05	-1.91	inactive
32	MED8	1	-2.37	-2.34	-2.53	-2.25	inactive
33	SFXN4	1	1.15	1.14	1.2	1.12	inactive
34	SNRNP70	1	0.79	0.88	0.74	0.75	inactive
35	ENO2	1	1.73	1.58	1.77	1.84	inactive
36	SUPT20HL2	1	-0.85	-1.04	-0.99	-0.52	inactive
37	SUPT20HL2	2	-0.97	-1.1	-0.9	-0.9	inactive
38	POGLUT1	1	1	0.73	1.14	1.12	inactive
39	FLJ21369 (retired record)	1	-0.9	-0.56	-0.96	-1.16	inactive

Reformatted: entries from further up
NOX4: mean z-score = 2.37; z-score, replicate A = 2.89; z-score, replicate B = 2.16; z-score, replicate C = 2.05; call = active
PRR19: mean z-score = 0.78; z-score, replicate A = 0.82; z-score, replicate B = 0.7; z-score, replicate C = 0.81; call = inactive
IL23R: mean z-score = 0.13; z-score, replicate A = 0.26; z-score, replicate B = 0.1; z-score, replicate C = 0.03; call = inactive
